Tests used:
[1] = biological target: hNaV1.7 (Homo sapiens, UniProt Q15858); assay: automated whole-cell patch-clamp (QPatch 16X), concentration–response inhibition of Na+ currents; format: cell-based; details: ↑ fold increase in IC50 relative to ligand 1
[2] = biological target: hNaV1.4 (Homo sapiens, UniProt P35499); assay: as above; format: cell-based

Sequences of proteins named here, by UniProt entry; tags and fusion partners are left off. Residues count along the entry.
UniProt Q15858, whole entry: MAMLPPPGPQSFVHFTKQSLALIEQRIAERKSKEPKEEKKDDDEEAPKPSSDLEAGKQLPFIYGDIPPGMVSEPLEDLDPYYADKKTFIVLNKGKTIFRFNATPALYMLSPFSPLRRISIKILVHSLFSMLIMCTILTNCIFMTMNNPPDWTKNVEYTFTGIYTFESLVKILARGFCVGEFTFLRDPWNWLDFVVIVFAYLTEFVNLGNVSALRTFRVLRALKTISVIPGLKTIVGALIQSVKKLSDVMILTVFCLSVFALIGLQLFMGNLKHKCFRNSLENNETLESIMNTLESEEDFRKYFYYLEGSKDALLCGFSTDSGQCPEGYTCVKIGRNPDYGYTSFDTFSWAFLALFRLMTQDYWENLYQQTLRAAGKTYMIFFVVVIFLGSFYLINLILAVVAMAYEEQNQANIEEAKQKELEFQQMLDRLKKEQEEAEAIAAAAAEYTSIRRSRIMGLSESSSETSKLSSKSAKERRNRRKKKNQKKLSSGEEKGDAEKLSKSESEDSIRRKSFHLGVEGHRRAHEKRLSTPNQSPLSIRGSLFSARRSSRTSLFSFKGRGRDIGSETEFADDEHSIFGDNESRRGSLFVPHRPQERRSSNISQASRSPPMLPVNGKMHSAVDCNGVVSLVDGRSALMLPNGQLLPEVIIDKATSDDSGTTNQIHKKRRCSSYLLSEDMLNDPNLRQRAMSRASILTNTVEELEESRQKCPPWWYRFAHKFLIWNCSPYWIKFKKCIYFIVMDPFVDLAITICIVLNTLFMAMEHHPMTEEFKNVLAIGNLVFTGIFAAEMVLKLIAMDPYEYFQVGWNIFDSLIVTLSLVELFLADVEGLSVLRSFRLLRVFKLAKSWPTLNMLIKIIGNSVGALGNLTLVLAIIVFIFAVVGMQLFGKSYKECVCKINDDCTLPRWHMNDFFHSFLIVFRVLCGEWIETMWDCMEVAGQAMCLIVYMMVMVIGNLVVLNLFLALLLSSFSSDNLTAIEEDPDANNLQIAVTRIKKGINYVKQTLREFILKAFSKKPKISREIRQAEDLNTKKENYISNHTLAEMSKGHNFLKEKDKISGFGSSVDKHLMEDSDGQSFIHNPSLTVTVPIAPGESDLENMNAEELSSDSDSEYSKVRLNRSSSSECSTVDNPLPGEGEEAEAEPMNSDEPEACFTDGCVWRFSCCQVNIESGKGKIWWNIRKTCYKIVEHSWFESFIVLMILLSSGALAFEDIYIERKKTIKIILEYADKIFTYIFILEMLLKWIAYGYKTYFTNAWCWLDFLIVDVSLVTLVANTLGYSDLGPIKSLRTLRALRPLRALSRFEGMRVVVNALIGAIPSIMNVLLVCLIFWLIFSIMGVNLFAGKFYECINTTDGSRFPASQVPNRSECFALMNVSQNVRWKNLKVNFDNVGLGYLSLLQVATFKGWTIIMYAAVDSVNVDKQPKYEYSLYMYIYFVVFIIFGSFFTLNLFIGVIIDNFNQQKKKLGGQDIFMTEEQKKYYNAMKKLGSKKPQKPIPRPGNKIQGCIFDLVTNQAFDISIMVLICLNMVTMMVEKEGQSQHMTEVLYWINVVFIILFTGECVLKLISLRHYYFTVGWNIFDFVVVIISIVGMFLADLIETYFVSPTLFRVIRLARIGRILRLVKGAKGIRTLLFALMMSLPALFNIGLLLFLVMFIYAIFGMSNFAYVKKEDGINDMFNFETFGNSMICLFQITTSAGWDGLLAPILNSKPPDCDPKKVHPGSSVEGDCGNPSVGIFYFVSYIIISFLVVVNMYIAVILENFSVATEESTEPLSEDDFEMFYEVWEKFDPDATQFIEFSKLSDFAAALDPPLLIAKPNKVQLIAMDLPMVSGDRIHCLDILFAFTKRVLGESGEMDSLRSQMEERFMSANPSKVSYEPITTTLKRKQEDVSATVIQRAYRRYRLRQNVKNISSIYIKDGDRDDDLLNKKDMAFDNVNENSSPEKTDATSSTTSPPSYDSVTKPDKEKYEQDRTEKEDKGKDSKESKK
UniProt P35499, whole entry: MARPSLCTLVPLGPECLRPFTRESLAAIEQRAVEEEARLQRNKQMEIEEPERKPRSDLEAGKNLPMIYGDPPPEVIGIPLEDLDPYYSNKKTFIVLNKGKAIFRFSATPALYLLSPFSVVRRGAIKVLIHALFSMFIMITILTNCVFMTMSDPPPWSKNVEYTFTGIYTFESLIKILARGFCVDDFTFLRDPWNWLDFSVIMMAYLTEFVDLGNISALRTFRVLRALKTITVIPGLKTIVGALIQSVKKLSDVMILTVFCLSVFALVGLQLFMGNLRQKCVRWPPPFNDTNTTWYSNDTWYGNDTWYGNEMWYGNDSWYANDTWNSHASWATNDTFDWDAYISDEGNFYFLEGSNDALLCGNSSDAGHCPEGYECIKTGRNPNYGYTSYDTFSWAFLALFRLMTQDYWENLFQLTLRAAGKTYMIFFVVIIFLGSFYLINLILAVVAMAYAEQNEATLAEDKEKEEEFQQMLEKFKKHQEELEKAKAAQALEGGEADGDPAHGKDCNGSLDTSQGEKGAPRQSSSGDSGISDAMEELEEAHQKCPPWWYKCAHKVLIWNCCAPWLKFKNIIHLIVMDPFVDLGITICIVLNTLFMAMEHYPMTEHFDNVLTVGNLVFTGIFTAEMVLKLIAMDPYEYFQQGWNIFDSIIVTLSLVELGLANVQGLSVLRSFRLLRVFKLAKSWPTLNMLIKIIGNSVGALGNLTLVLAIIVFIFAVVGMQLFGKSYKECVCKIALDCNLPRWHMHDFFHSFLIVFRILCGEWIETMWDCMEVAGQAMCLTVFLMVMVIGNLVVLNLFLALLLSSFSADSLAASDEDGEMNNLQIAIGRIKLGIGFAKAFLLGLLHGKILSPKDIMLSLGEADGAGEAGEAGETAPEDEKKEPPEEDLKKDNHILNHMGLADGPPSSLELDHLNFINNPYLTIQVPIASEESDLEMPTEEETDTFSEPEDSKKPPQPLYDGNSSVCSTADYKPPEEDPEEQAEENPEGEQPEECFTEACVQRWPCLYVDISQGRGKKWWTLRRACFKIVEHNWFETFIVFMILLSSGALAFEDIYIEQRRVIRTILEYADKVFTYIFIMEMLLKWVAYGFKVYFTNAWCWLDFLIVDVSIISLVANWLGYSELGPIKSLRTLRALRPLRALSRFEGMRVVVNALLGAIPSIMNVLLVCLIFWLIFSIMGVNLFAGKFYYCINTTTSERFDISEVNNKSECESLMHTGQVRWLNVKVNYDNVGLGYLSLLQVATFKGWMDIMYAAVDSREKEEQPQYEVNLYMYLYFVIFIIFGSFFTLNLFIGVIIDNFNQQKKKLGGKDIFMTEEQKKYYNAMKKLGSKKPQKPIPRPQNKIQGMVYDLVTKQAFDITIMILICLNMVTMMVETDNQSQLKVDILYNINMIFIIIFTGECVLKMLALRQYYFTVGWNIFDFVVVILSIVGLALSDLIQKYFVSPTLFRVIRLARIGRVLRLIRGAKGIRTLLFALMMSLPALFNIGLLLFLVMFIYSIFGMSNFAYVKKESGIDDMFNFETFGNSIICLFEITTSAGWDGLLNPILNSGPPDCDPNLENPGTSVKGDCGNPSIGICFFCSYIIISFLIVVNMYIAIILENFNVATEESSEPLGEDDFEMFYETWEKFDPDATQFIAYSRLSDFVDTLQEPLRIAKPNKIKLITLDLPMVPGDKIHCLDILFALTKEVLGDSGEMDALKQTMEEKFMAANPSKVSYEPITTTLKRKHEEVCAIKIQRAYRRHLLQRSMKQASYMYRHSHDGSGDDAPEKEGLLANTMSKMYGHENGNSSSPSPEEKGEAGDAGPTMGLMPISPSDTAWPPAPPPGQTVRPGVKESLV
UniProt Q07699, 19-218 partner limits assumed: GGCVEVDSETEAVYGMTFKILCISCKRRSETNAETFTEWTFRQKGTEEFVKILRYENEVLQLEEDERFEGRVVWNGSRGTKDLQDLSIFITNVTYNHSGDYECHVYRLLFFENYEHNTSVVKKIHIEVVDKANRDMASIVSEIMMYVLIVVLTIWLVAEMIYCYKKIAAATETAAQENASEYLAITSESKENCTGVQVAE

**Q.** How did the “IC50 relative to 1, hNaV1.7 (fold increase)” value [1] turn out when `C#CC[C@H](N)C(=O)NCCOCCOCCOCCOCCC(=O)NCCOCCOCCOCCOCCC(=O)NCCOCCOCCOCCOCCC(=O)NCCOCCOCCOCCOCCC(=O)N/N=C/C(=O)NCC(=O)N[C@H]1CSSC[C@@H]2NC(=O)[C@@H]3CSSC[C@@H](C(=O)N[C@@H](CCCCN)C(=O)N[C@@H](Cc4c[nH]c5ccccc45)C(=O)N[C@@H](CCC(N)=O)C(=O)N[C@H](C(N)=O)[C@@H](C)CC)NC(=O)[C@H](Cc4c[nH]c5ccccc45)NC(=O)[C@H](CCCNC(=N)N)NC(=O)[C@H]([C@@H](C)O)NC(=O)[C@H](CCCCN)NC(=O)[C@H](CCCNC(=N)N)NC(=O)[C@H](CO)NC(=O)[C@H](CSSC[C@H](NC(=O)[C@H](C)NC(=O)[C@H](CCCCN)NC(=O)[C@H](Cc4ccccc4)NC(=O)[C@H]([C@@H](C)CC)NC(=O)CNC(=O)[C@H](CC(C)C)NC1=O)C(=O)N[C@@H](CC(N)=O)C(=O)N1CCC[C@H]1C(=O)N[C@@H](CO)C(=O)N[C@@H](CC(N)=O)C(=O)N[C@@H](CC(=O)O)C(=O)N[C@@H](CCC(N)=O)C(=O)N3)NC(=O)[C@H](C(C)C)NC(=O)[C@H](CC(C)C)NC(=O)[C@H](CCCCN)NC(=O)[C@H](CO)NC(=O)[C@H](CO)NC(=O)[C@H](CCCCN)NC2=O` was run?
**A.** Its value is 1.3× ↑.

**Q.** And the “fold decrease in inhibitory potency on PEG80 linker attachment, NaV1.4” value ([2]; [K-KIIIA]-[PEG80] compared to AzK-KIIIA, [m3-HwTx-IV]-[PEG80] compared to S-m3-HwTx-IV)?
**A.** The value was 1.9 fold.

**Q.** And the “IC50 relative to 1, hNaV1.4” value ([2]; ↑ fold increase in IC50 relative to ligand 1)?
**A.** Its value is 45.4× ↑.

Reference: paper PMC7667638 (Journal of Medicinal Chemistry, 2020)
